For 72 molecules, inhibition results are on record in PubChem BioAssay AID540336 (Broad Institute, 2011).

The chains behind the UniProt entries cited, without tags or fusion partners.
UniProt Q5AAJ8, whole entry: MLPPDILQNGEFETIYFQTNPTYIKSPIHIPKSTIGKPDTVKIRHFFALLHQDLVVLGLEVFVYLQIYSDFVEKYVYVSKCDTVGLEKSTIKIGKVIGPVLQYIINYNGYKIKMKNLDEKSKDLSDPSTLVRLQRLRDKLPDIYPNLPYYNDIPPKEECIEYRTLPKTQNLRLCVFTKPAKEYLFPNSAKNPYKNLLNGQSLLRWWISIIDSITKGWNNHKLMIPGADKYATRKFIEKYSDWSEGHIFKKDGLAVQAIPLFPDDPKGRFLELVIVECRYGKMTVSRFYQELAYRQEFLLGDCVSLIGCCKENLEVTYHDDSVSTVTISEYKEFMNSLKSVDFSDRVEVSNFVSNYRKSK

The list shows a part of the results, in another mix than the full data. Calls of active or inactive are those of the source.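 How the source made its calls: active means inhibition of at least 50% in every replicate; inconclusive means best replicate reaches 50% inhibition but some replicates fall short; inactive means the rest.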

As a reminder, the inhibition is the relative decrease from the control value, in per cent.

This experiment addresses Histone acetyltransferase RTT109 (Candida albicans (strain SC5314 / ATCC MYA-2876)) (UniProt Q5AAJ8). Kind of experiment: Rtt109-Vps75 histone acetyltransferase blockade – biochemical, ThioGlo CoA-SH fluorescence, plate reader, primary screen (AID 540336). The note with it: purified Rtt109/Vps75, ThioGlo CoA-SH fluorescence, 4 h; at 34.9 µM; stronger effect = higher value.
With `CC(C)(C)OC(=O)N1CCC(N(C(=O)c2ccccc2)c2ccc(Cl)cc2)CC1`, the inhibition is inactive: -2.63%.
The result for `N#Cc1ccc(C(=O)NCC2(N3CCCCC3)CCCCC2)cc1` reads inactive: 0.375%.
The result for `c1ccc(CN2CCC(Nc3ccccc3)CC2)cc1` reads inactive: 7.46%; that for `CCCN1CCC(Nc2cc(OC)cc(OC)c2)CC1`, inactive: -8.48%.
Consider `Cc1cc(N(CCCl)CCCl)ccc1C=O`, for which the inhibition is inactive: 1.31%.
Turning to `CN(C)C1(CNC(=O)c2cccc(C#N)c2)CCCCC1`, the inhibition is inactive: -1.4%.
Then `O=C(NCC1(N2CCOCC2)CCCCC1)c1cc(Br)ccc1Cl`, with inactive: 8.51%; and `COc1cc(C(=O)NCC2(N3CCOCC3)CCCCC2)cc(OC)c1C`, with inactive: 2.27%.
In the case of `N/C(=N\O)c1c(N)no[n+]1[O-]`, the inhibition is inactive: -9.26%.
The result for `CCOC(=O)N1CCC(Nc2ccc(C)cc2)CC1` reads inactive: -1.44%; that for `O=C(OC1CN2CCC1CC2)C1c2ccccc2C=Cc2ccccc21` (configuration not stated), inactive: 6.1%; that for `CCOc1ncccc1C(=O)NCC1(N2CCOCC2)CCCCC1`, inactive: 1.99%.
In the case of `CN1CCC(Nc2ccc(F)c(Cl)c2)CC1`, the inhibition is inactive: -1.12%.
The result for `CCCOc1ccc(C(=O)NCC2(N(C)C)CCCCC2)cc1` reads inactive: 0.439%; that for `CC(C)(C)OC(=O)N1CCC(Nc2ccccc2)CC1`, inactive: -1.28%.
Then `O=C(O)C1(Nc2ccccc2)CCN(Cc2ccccc2)CC1`, with inactive: 3.96%.
Then `CCC(CO)(C(=O)OC1CN2CCC1CC2)c1ccccc1` (configuration not stated), with inactive: -25.4%.
Take `COc1cc(OC)cc(C(=O)NCC2(N3CCOCC3)CCCCC2)c1`: the inhibition was inactive: -15.3%.
The result for `COc1cccc(C(=O)N(c2cc(C)cc(C)c2)C2CCN(C(=O)OC(C)(C)C)CC2)c1` reads inactive: -1.2%; that for `CN1CCC(Nc2ccc(Cl)cc2)CC1`, inactive: -6.81%; that for `COc1cc(OC)cc(C(=O)NCC2(N3CCCCC3)CCCCC2)c1`, inactive: 2.72%.
The result for `CC(=O)N(c1ccccc1)C1CCNCC1` reads inactive: 9.79%; that for `Cc1ccc(NC2(C#N)CCN(Cc3ccccc3)CC2)cc1`, inactive: 0.738%; that for `Cc1ccc(C(=O)NCC2(N3CCCCC3)CCCCC2)o1`, inactive: -11.9%.
As for `Fc1ccccc1NC1CCN(Cc2ccccc2)CC1`, the inhibition is inactive: -3.05%.
Then `Cc1ccccc1NC1(C#N)CCN(Cc2ccccc2)CC1`, with inactive: 1.55%; and `CCN1CCC(Nc2cccc(F)c2)CC1`, with inactive: 0.148%; and `O=C(NCC1(N2CCCCC2)CCCCC1)c1ccco1`, with inactive: 0.796%.
As for `CN(C)c1ccc(C(=O)NCC2(N3CCCCC3)CCCCC2)cc1`, the inhibition was inactive: 7.74%.
Then `Cn1c(=O)[nH]cc(N(CCCl)CCCl)c1=O`, with inactive: -15.3%.
Then `CCOc1ccc(C)cc1CN(CCCl)CCCl`, with inactive: 2.33%.
The result for `O=C1CCN(Cc2ccccc2)CC1` reads inactive: 3.08%; that for `O=P1(N(CCCl)CCCl)SCCCS1`, inactive: -5.8%; that for `CCCCOc1ccc(C(=O)NCC2(N3CCOCC3)CCCCC2)cc1`, inactive: 5.14%.
Regarding `O=C(NCC1(N2CCCCC2)CCCCC1)c1ccc(F)cc1`, the inhibition is inactive: -6.86%.
For the molecule `COc1ccc(NC2CCN(CCc3ccccc3)CC2)c(OC)c1`, the inhibition is inactive: -17.1%.
The result for `CCOC(=O)N1CCC(Nc2ccc(F)cc2)CC1` reads inactive: -3.2%; that for `CCOC(=O)N1CCC(Nc2cccc(C)c2)CC1`, inactive: -5.8%; that for `COc1cc(C(=O)NCC2(N(C)C)CCCCC2)ccc1OC(F)F`, inactive: -7.57%.
The result for `O=C(NCC1(N2CCCCC2)CCCCC1)c1ccc(=O)[nH]c1` reads inactive: 2.33%; that for `O=C(NCC1(N2CCCCC2)CCCCC1)c1cccs1`, inactive: 13.9%.
With `COc1ccc(C(=O)NCC2(N3CCCCC3)CCCCC2)c(OC)c1OC`, the inhibition is inactive: 9.14%.
The result for `CC(C)(C)OC(=O)N1CCC(N(C(=O)c2ccccc2)c2ccc(F)cc2)CC1` reads inactive: -1.4%; that for `CSc1ccccc1C(=O)NCC1(N2CCCCC2)CCCCC1`, inactive: -3.78%; that for `Cc1cccc(NC2(C#N)CCN(Cc3ccccc3)CC2)c1`, inactive: 1.3%.
Then `O=C(NCC1(N2CCOCC2)CCCCC1)c1cc2ccccc2o1`, with inactive: -9.44%; and `O=C(NCC1(N2CCCCC2)CCCCC1)c1ccc(Cl)nc1`, with inactive: -8.85%; and `Cc1cc(C)cc(N(C(=O)c2ccccc2)C2CCN(C(=O)OC(C)(C)C)CC2)c1`, with inactive: -4.4%.
For `CCOC(=O)N1CCC(Nc2ccc(OC)cc2)CC1`, the inhibition was inactive: -5.76%.
As for `N#CC1(Nc2ccccc2)CCN(Cc2ccccc2)CC1`, the inhibition was inactive: 4.6%.
The result for `O=C(NCC1(N2CCCCC2)CCCCC1)c1ccc(Cl)s1` reads inactive: 0.397%.
Then `O=C(OC1CN2CCC1CC2)C1c2ccccc2Oc2ccccc21` (configuration not stated), with inactive: 5.49%.
Turning to `COc1ccc(Cl)cc1C(=O)NCC1(N2CCOCC2)CCCCC1`, the inhibition was inactive: 9.06%.
Consider `COc1ccc(CN(CCCl)CCCl)cc1Cl`, for which the inhibition is inactive: -10.6%.
Turning to `CN(C)c1cccc(C(=O)NCC2(N3CCCCC3)CCCCC2)c1`, the inhibition was inactive: -4.58%.
The result for `CC(C)c1ccc(NC2CCN(C(=O)OC(C)(C)C)CC2)cc1` reads inactive: -5.5%; that for `COc1cc(OC)c(C(=O)NCC2(N(C)C)CCCCC2)cc1OC`, inactive: 9.76%; that for `O=C(NCC1(N2CCOCC2)CCCCC1)c1cc(F)c(F)cc1Cl`, inactive: -21.5%.
Then `CN1CCC(Nc2cccc(F)c2)CC1`, with inactive: -1.49%; and `O=C(NCC1(N2CCCCC2)CCCCC1)c1cncc(Br)c1`, with inactive: -7.87%.
Then `CCCOc1ccc(C(=O)NCC2(N(C)C)CCCCC2)cc1OC`, with inactive: -1.03%.
As to `O=C(NCC1(N2CCCCC2)CCCCC1)c1ccc(OC(F)F)cc1`, the inhibition was inactive: 3.07%.
The result for `CSc1ccc(C(=O)NCC2(N3CCOCC3)CCCCC2)cc1` reads inactive: 6.29%; that for `O=C(NCC1(N2CCCCC2)CCCCC1)c1cccc([N+](=O)[O-])c1`, inactive: 7.19%.
Then `CCN1CCC(Nc2ccc(Cl)cc2)CC1`, with inactive: -6.87%; and `N#CC1(Nc2ccccc2)CCN(CCc2ccccc2)CC1`, with inactive: 9.45%.
The result for `O=C(NCC1(N2CCCCC2)CCCCC1)c1cccc(C(F)(F)F)c1` reads inactive: -3.88%.
As to `CN1CCN(CCOC(=O)C(O)(c2ccccc2)c2ccccc2)CC1`, the inhibition is inactive: -1.31%.
The result for `COc1ccc(NC2CCN(C(=O)OC(C)(C)C)CC2)cc1` reads inactive: -11.1%.
Then `CC(C)c1ccc(C(=O)NCC2(N3CCOCC3)CCCCC2)cc1`, with inactive: 1.31%.
Turning to `COc1cc(C(=O)NCC2(N3CCCCC3)CCCCC2)ccc1OC(F)F`, the inhibition is inactive: -5.24%.
Then `O=C(NCC1(N2CCOCC2)CCCCC1)c1cc(=O)[nH]c2ccccc12`, with inactive: 1.12%.
